The subject of experiment [1] is hepatitis C replicon. In words: hepatitis C replicon EC50 assay. Format: cell-based, hepatitis C virus (HCV). The conditions noted are these: tested form: HCl. From the text:
(§1) NS3-NS4 inhibition activity can be determined using known assay methods. For example, NS3/NS4 complexes may be formed and inhibitory concentrations of test compounds determined as described in U.S. Patent Application Publication Number 2007/0054842 paragraph numbers 1497-1509, which is incorporated herein by reference in its entirety. Similarly, hepatitis C replicon EC50 may be determined using known assay methods such as described in U.S. Patent Application Publication Number 2007/0054842 paragraph numbers 1510-1515, which is incorporated herein by reference in its entirety. Assays may be conducted at ambient temperature (23° C.) in assay buffer containing 50 mM Tris-HCl, pH 7.5, 15% glycerol, 0.6 mM Lauryldimethylamine Oxide (LDAO), 25 μM NS4A peptide, and 10 mM Dithiothreitol (DTT).

By UniProt entry, the sequences of proteins in these tests, tags left out. Residues count along the entry.
UniProt P27958, 1027-1657 limits assumed: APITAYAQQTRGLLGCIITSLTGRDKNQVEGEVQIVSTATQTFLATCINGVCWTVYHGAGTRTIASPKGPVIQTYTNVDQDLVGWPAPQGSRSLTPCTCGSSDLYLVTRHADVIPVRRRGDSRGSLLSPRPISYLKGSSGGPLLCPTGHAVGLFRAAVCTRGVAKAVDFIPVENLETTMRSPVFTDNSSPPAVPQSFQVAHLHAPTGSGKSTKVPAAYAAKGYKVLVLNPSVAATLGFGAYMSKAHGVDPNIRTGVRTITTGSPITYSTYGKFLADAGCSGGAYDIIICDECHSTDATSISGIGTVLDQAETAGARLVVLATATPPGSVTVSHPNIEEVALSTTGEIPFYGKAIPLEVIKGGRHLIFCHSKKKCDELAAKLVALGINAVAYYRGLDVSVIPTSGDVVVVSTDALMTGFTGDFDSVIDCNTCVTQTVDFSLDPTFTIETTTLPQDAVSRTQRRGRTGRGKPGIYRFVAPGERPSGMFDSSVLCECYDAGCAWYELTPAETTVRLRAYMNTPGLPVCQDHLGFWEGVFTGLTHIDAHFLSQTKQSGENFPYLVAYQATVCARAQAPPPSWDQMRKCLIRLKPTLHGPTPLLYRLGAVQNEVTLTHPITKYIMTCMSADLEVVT
UniProt P27958, 1658-1711 partner limits assumed: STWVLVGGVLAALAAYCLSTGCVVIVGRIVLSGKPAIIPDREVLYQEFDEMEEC

For experiment [2], the target named is NS3/NS4 complexes (Hepatitis C virus genotype 1a, UniProt P27958). In words: NS3/NS4 inhibition assay (inhibitory concentrations of test compounds). Format: biochemical. The settings on record: NS3-NS4 activity; 23° C., pH 7.5, 25 μM NS4A peptide; tested form: HCl.
From the text: as §1

The results in this text go back to patent US20120095211A1, “SUBSTITUTED PROLINE INHIBITORS OF HEPATITIS C VIRUS REPLICATION” (InterMune, Inc., priority 2010, published 2012).

Each structure is given as a SMILES string.

The EC50 is the concentration that produces a half-maximal response. Lower therefore signals an effect from little substance. In general, IC50 refers to the point on the concentration scale where inhibition reaches its midpoint. A higher IC50 goes with weaker potency. With `COc1ccc2c(O[C@H]3CN4C(=O)[C@@H](N)CCCCC/C=C\[C@@H]5C[C@@]5(C(=O)NS(=O)(=O)C5CC5)NC(=O)[C@@H]4[C@@H]3C)cc(-c3nc(C(C)C)cs3)nc2c1C`, the EC50 in experiment [1] was below 10 nM. This compound returned an IC50 in experiment [2] below 10 nM.
